Pooled drug test results. Numbers come from NIAID ChemDB, via PubChem.

All rows: growth or infection tests; species: Hepatitis B virus; endpoint: EC50

ECn: concentration that inhibits the pathogen or its effect by n%.

CCOC(=O)C1=C(CN2CC(F)(F)[C@H]3[C@@H]2CCN3C[C@@](C)(O)C(=O)O)NC(c2nc(C)cs2)=N[C@H]1c1cccc(F)c1C ; cell line: HepG2.2.15 ; read by: PCR ; result: 0.009 µM
CC(C)Oc1ccc(-n2c(-c3nnc(Cc4ccccc4)o3)c3n(c2=O)CCN(C(=O)c2ccc(Br)c(Cl)c2)C3)cc1 ; cell line: HepG2.117 ; read by: PCR ; result: >5 µM
Cc1cc(NC(=O)c2c3c(cn2C)S(=O)(=O)N[C@H]2CN(C(=O)C(=O)N[C@H](C)C(F)(F)F)C[C@H]2CO3)ccc1F ; cell line: HepAD38 ; read by: PCR ; result: <0.5 µM
CCOC(=O)C1=C(CN2CC(F)(F)[C@H]3[C@@H]2CCN3C[C@H](O)C(C)(C)C(=O)O)NC(c2nccs2)=N[C@@H]1c1cccc(F)c1F ; cell line: HepG2.2.15 ; read by: PCR ; result: 0.035 µM
Cn1nc2cc(NS(=O)(=O)c3cnn(-c4ccc(N)nc4)c3)ccc2c1C(=O)Nc1ccc(F)c(Cl)c1 ; cell line: HepAD38 ; read by: PCR ; result: 100–1000 µM
Cn1cc(S(=O)(=O)N[C@@H]2CCN(S(=O)(=O)C3CC3)C2)c(F)c1C(=O)Nc1ccc(F)c(F)c1 ; cell line: HepAD38 cells ; read by: PCR ; result: <0.1 µM
Cc1cc(NC(=O)c2c3c(cn2C)S(=O)(=O)N[C@H]2CN(C(=O)C(N)=O)C[C@H]2CS3)ccc1F ; cell line: HepAD38 ; read by: PCR ; result: <0.5 µM
COCCNS(=O)(=O)CNc1ccc2c(C(=O)Nc3ccc(F)c(Cl)c3)n(C)nc2c1 ; cell line: HepAD38 ; read by: PCR ; result: <100 µM
CC#CC1(NC(=O)C(=O)c2c(C)c(C(=O)Nc3ccc(F)c(C#N)c3)n(C)c2C)COC1 ; cell line: HepG2.2.15 ; read by: PCR ; result: <0.001 µM
CCOC(=O)C1=C(CN2CC(F)(F)[C@@H]3[C@H]2CON3C[C@H](OC)C(C)(C)C(=O)O)NC(c2nccs2)=N[C@H]1c1cccc(F)c1Cl ; cell line: HepG2.2.15 ; read by: PCR ; result: 0.005 µM
C=CC1(NC(=O)C(=O)c2c(C)c(C(=O)Nc3ccc(F)c(C#N)c3)n(C)c2C)COC1 ; cell line: HepG2.2.15 ; read by: PCR ; result: 0.001–0.0099 µM
CC1(C)C(=O)Nc2ccc(-n3c(C(=O)NCc4ccccc4)c4n(c3=O)CCN(C(=O)c3ccc(Br)c(Cl)c3)C4)cc21 ; cell line: HepG2.117 ; read by: PCR ; result: 0.5–5 µM
CN(C)C(=O)C(=O)N1CC2COc3c(cn(C)c3C(=O)Nc3cc(F)c(F)c(F)c3)S(=O)(=O)NC2C1 ; cell line: HepG2 ; read by: PCR ; result: <0.5 µM
CNC(=O)C(=O)N1CCC(NS(=O)(=O)c2cn(C)c(C(=O)Nc3cc(F)cc(Cl)c3)c2F)CC1 ; cell line: HepAD38 cells ; read by: PCR ; result: <0.1 µM
CC(C)(Oc1ccc(-n2c(C(=O)NCc3ccccc3)c3n(c2=O)CCN(C(=O)c2ccc(Br)c(Cl)c2)C3)cc1)C(F)(F)F ; cell line: HepG2.117 ; read by: PCR ; result: 0.5–5 µM
CNS(=O)(=O)c1ccc2c(C(=O)Nc3ccc(F)c(Cl)c3)n(C)nc2c1 ; cell line: HepAD38 ; read by: PCR ; result: 100–1000 µM
CCNC(=O)C(=O)N1CCC(NS(=O)(=O)c2c(F)c(C(=O)Nc3cc(F)c(F)c(F)c3)n(C)c2Br)CC1 ; cell line: HepAD38 cells ; read by: PCR ; result: <0.1 µM
C#C[C@@](CO)(NC(=O)C(=O)c1c(C)c(C(=O)Nc2ccc(F)c(C#N)c2)n(C)c1C)C(F)(F)F ; cell line: HepG2.2.15 ; read by: PCR ; result: 0.001–0.0099 µM
O=C(Nc1cc(F)c(F)c(F)c1)c1c(Cl)c(S(=O)(=O)NC2CCN(S(=O)(=O)C3CC3)CC2(F)F)c2n1CCC2 ; cell line: HepAD38 cells ; read by: PCR ; result: <0.1 µM
Cn1nc2cc(NS(=O)(=O)NCc3cccc(F)n3)ccc2c1C(=O)Nc1ccc(F)c(Cl)c1 ; cell line: HepAD38 ; read by: PCR ; result: 100–1000 µM
Cc1cc(NC(=O)c2c3c(cn2C)S(=O)(=O)NC2CN(C(=O)C(=O)NC4(C)COC4)CC2CO3)ccc1F ; cell line: HepG2 ; read by: PCR ; result: <0.5 µM
CC(C)Oc1ccc(-n2c(C(=O)NCc3ccccc3)c3n(c2=O)CCN(C(=O)c2ccc(Cl)c(Cl)c2)C3)cc1 ; cell line: HepG2.117 ; read by: PCR ; result: 0.5–5 µM
CCOC(=O)C1=C(CN2CC(F)(F)[C@H]3[C@@H]2CCN3CC(F)(F)C(C)(C)C(=O)O)NC(c2nccs2)=N[C@H]1c1cccc(F)c1C ; cell line: HepG2.2.15 ; read by: PCR ; result: 0.0085 µM
Cn1nc2cc(NS(=O)(=O)c3nccs3)ccc2c1C(=O)Nc1ccc(F)c(Cl)c1 ; cell line: HepAD38 ; read by: PCR ; result: 100–1000 µM
N#Cc1ccc(CNC(=O)c2c3n(c(=O)n2-c2ccc(OC4CC4)cc2)CCN(C(=O)c2ccc(Br)c(Cl)c2)C3)c(F)c1 ; cell line: HepG2.117 ; read by: PCR ; result: 0.5–5 µM
Cn1nc2cc(NS(=O)(=O)c3cnn(Cc4ccccc4)c3)ccc2c1C(=O)Nc1ccc(F)c(Cl)c1 ; cell line: HepAD38 ; read by: PCR ; result: 100–1000 µM
C[C@H](c1ccccc1)N1C[C@H](O)Cn2c(c3n(c2=O)CCN(C(=O)c2ccc(Br)c(Cl)c2)C3)C1=O ; cell line: HepG2.117 ; read by: PCR ; result: 0.1–0.5 µM
COC(=O)C1=C(CN2CC(F)(F)[C@@H]3[C@H]2CON3C[C@@H](F)C(C)(C)C(=O)O)NC(c2nccs2)=N[C@H]1c1ccc(F)c(F)c1Cl ; cell line: HepG2.2.15 ; read by: PCR ; result: 0.005 µM
Cc1c(C(=O)C(=O)NC(C)(C)c2cn[nH]c2)c(C)n(C)c1C(=O)Nc1ccc(F)c(C#N)c1 ; cell line: HepG2.2.15 ; read by: PCR ; result: 0.001–0.0099 µM
Cn1nc2cc(NS(=O)(=O)N3CC(O)C3)ccc2c1C(=O)Nc1ccc(F)c(Cl)c1 ; cell line: HepAD38 ; read by: PCR ; result: 100–1000 µM
COC(=O)C1=C(CN2CC(F)(F)[C@@H]3[C@H]2CON3C[C@H](O)C(C)(C)C(=O)O)NC(c2nccs2)=N[C@H]1c1cccc(F)c1Cl ; cell line: HepG2.2.15 ; read by: PCR ; result: 0.1295 µM
Cc1cc(NC(=O)c2c3c(cn2C)S(=O)(=O)NC2CCN(C(=O)C(=O)N[C@@H](C)C(F)(F)F)CC2CO3)ccc1F ; cell line: HepAD38 ; read by: PCR ; result: <0.5 µM
CN1[C@H](C(=O)Nc2ccc(F)c(Cl)c2)C[C@H](c2ncc(-c3cn(C)cn3)s2)NS1(=O)=O ; strain: Genotype D ; cell line: PHH ; read by: ELISA / antigen ; result: 0.204 µM
Cn1nc2cc(NS(=O)(=O)NCCO)ccc2c1C(=O)Nc1ccc(F)c(Cl)c1 ; cell line: HepAD38 ; read by: PCR ; result: <100 µM

2 of the rows above, restated:

structure,strain,cell line,read by,result
C=CC1(NC(=O)C(=O)c2c(C)c(C(=O)Nc3ccc(F)c(C#N)c3)n(C)c2C)COC1,,HepG2.2.15,PCR,0.001–0.0099 µM
CC(C)Oc1ccc(-n2c(-c3nnc(Cc4ccccc4)o3)c3n(c2=O)CCN(C(=O)c2ccc(Br)c(Cl)c2)C3)cc1,,HepG2.117,PCR,>5 µM

Rows are shuffled and stem from different studies. An empty or dashed field is not shown. Two numbers with a dash give a range or band.